The values below come from publication PMC6123721, “Transient antibody-antigen interactions mediate the strain-specific recognition of a conserved malaria epitope” (Communications Biology, 2018).

For the assay, the target named is T1, MSP2 14-22 peptide (minimal 6D8 epitope of merozoite surface protein 2) (Plasmodium falciparum, conserved region …, UniProt P19599).
T1 chain: NAYNMSIRR
The assay can be described thus: NMR chemical shift perturbation. The note with it: both partners purified.

B1: 6D8 single-chain Fv (scFv) (scFv, V domains shown)
VH: QVQLQQSGDELVKPGASVKLSCTVSGFNIKDDFIHWMKQRPEQGLEWIGRIDPANGYTKYAPKFQDKATMTADTSSNTAYLQLSSLASEDAAVYYCATYGVAYWGQGTLVTVSA
VL: DIVLTQSPASLAVSLGQRATISCKASQSVDHDGDSYMNWFQQKPGQSPKLLIYAASNLESGIPARFSGSGSGTDFTLNIHPVEEEDAATYYCQQTNEDPYTFGGGTKLEIK
notes: not shown: His-tag, C-terminal, kept
With B1, the binding result was “binds”.
